In paper PMC8097418, “In Vitro and In Vivo Antibacterial Activities of a Novel Quinolone Compound, OPS-2071, against Clostridioides difficile” (Antimicrobial Agents and Chemotherapy, 2021):

tested on: hypervirulent and nonhypervirulent strains of C. difficile (62 strains); test: MIC distribution against 20 hypervirulent and 42 nonhypervirulent strains; assay type: cell-based, Clostridioides difficile; conditions: Wilcoxon rank sum test

| SMILES | difference in susceptibility between hypervirulent and nonhypervirulent strains |
| --- | --- |
| Cc1c(-c2cnc(N)c(C#N)c2)c(F)cc2c(=O)c(C(=O)O)cn(C3CC3)c12 [OPS-2071, 7-(6-amino-5-cyanopyridin-3-yl)-1-cyclopropyl-6-fluoro-8-methyl-4-oxo-1,4-dihydroquinoline-3-carboxylic acid] | no significant difference |
| CN[C@H](CC(C)C)C(=O)N[C@H]1C(=O)N[C@@H](CC(N)=O)C(=O)N[C@H]2C(=O)N[C@H]3C(=O)N[C@H](C(=O)N[C@H](C(=O)O)c4cc(O)cc(O)c4-c4cc3ccc4O)[C@H](O)c3ccc(c(Cl)c3)Oc3cc2cc(c3O[C@@H]2O[C@H](CO)[C@@H](O)[C@H](O)[C@H]2O[C@H]2C[C@](C)(N)[C@H](O)[C@H](C)O2)Oc2ccc(cc2Cl)[C@H]1O [Vancomycin] | no significant difference |
| Cc1ncc([N+](=O)[O-])n1CCO [Metronidazole] | significant differences |
| CCc1c(Cl)c(O)c(Cl)c(O)c1C(=O)O[C@H]1[C@H](O)[C@H](OC)[C@H](OC/C2=C\C=C\C[C@H](O)/C(C)=C/[C@H](CC)[C@@H](O[C@@H]3OC(C)(C)[C@@H](OC(=O)C(C)C)[C@H](O)[C@@H]3O)/C(C)=C/C(C)=C/C[C@@H]([C@@H](C)O)OC2=O)O[C@@H]1C [Fidaxomicin] | significant differences |
